Pooled drug test results. Numbers come from NIAID ChemDB, via PubChem.

Shared fields: whole-cell or culture tests; agent: Human cytomegalovirus

Neighbouring rows are from separate reports. Inhibition is in % at the dose shown (toxicity tests: loss of growth or viability). ECn: concentration that inhibits the pathogen or its effect by n%. Blank or dashed fields: not listed here.

smiles,strain,tested at,cells,method,endpoint,value
Nc1ncnc2c1ncn2[C@@H]1O[C@H](CO)[C@@H](O)[C@@H]1O,,10 µM,HEL,plaque count,inhibition,35.3%
OC[C@H]1O[C@@H](n2c(Br)nc3cc(Cl)c(Cl)cc32)[C@H](O)[C@@H]1O,9330REC5 (HIS520GLU),,MRC-5,hybridisation,EC50,0.7 µM
O=C(O)P(=O)(O)O,PC92 (ganciclovir- foscarnet-susceptible),,MRC-5,plaque count,EC75,154 µM
O=c1[nH]c(=O)n([C@H]2C[C@H](O)[C@@H](CO)O2)cc1/C=C/Br,,20 µM,HEL,plaque count,inhibition,29.3%
O=C(NCc1ccc(Cl)cc1)c1c[nH]c2ccc(C#CCO)cc2c1=O,GDGrP53,,,plaque count,EC90,3 µM
Nc1ccn(C[C@H]2COP(=O)(O)CO2)c(=O)n1,PAAR,,MRC-5,plaque count,EC75,0.79 µM
Cc1ccc2ncnc(Nc3ccc(Cl)c(Cl)c3)c2c1,AD169-GFP,1.1 µM,HFF,plaque count,inhibition,18%
Cn1cc(C(=O)NCc2ccc(Cl)cc2)c(=O)c2cc(CN3CCOCC3)ccc21,DAVIS,3.7 µM,HFF,plaque count,inhibition,90%
COc1cccc(N2CCN(C3=Nc4c(F)cccc4[C@H](CC(=O)O)N3c3cc(C(F)(F)F)ccc3OC)CC2)c1,Clinical isolate 8,,,plaque count,EC50,0.002 µM
Nc1nc2c(ncn2COC(CO)CO)c(=O)[nH]1,VR5120 (ganciclovir-resistant),,,plaque count,EC90,72.5 µM
Nc1nc2c(ncn2COC(CO)CO)c(=O)[nH]1,AD169,,MRC-5,hybridisation,EC50,0.53 µM
Nc1ccn(C[C@@H](CO)OCP(=O)(O)O)c(=O)n1.O=C(O)P(=O)(O)O,PC92 (ganciclovir- foscarnet-susceptible),,MRC-5,plaque count,EC75,0.83 µM
O=C(NCc1ccc(Cl)cc1)c1c[nH]c2ccc(CCCO)cc2c1=O,759rD100,,,plaque count,EC90,2.1 µM
Nc1nc2c(ncn2COC(CO)CO)c(=O)[nH]1,TOWNE,,,virus yield,EC50,<3.1 µM
Nc1nc2c(ncn2COC(CO)CO)c(=O)[nH]1,PC92 (ganciclovir- foscarnet-susceptible),,MRC-5,plaque count,EC75,3.49 µM
O=C(NCc1ccc(Cl)cc1)c1c[nH]c2c(F)cccc2c1=O,P53 GDG-resistant,,,plaque count,EC50,5.8 µM

2 of the rows above, restated:

smiles	strain	tested at	cells	method	endpoint	value
Cn1cc(C(=O)NCc2ccc(Cl)cc2)c(=O)c2cc(CN3CCOCC3)ccc21	DAVIS	3.7 µM	HFF	plaque count	inhibition	90%
O=C(NCc1ccc(Cl)cc1)c1c[nH]c2ccc(C#CCO)cc2c1=O	GDGrP53			plaque count	EC90	3 µM